Measured values from several laboratories, pooled; numbers as filed in NIAID ChemDB.

All rows: growth or infection tests; agent: HIV-1; measure: EC50

Neighbouring rows are from separate reports. An empty or dashed field is not shown. a–b is a range or a potency band. ECn: concentration that inhibits the pathogen or its effect by n%.

structure,strain or isolate,changes,cell line,read by,value
CC(=O)[C@@H](C)OC(C(=O)O)c1c(C)nc2ccc(Br)cc2c1-c1ccc(Cl)cc1,-,-,C8166,luciferase / reporter gene,<20 µM
CN(C(=O)[C@H](Cc1cc(F)cc(F)c1)NC(=O)CN1c2ccccc2N(CC(=O)N[C@@H](Cc2cc(F)cc(F)c2)C(=O)N(C)c2ccc3sncc3c2)S1(=O)=O)c1ccc2sncc2c1,NL4-3,-,MT-2,luciferase,0.02 µM
CN1N=C(N)c2cn([C@@H]3O[C@H](COP(=O)(O)O)[C@@H](O)[C@H]3O)c3ncnc1c23,ED,-,CEM + CEM-SS,cytopathic effect / XTT,>2.8 µM
COc1cnc(Cl)c2[nH]cc(C(=O)C(=O)N3CCC(=C(C#N)c4cccnc4)CC3)c12,-,-,HeLa,luciferase,<1 µM
C=CCO/N=C/c1cc(NC(=S)c2ccoc2C)ccc1Cl,NL4-3,RT-L100I,CEM + CEM-SS,cytopathic effect / XTT,1.3 µM
COc1ccc(N(C)C(=O)[C@H](Cc2ccccc2)NC(=O)Cn2c(=O)c3ccccc3c(=O)n2CC(=O)N[C@@H](Cc2ccccc2)C(=O)N(C)c2ccc(OC)cc2)cc1,NL4-3,-,MT-2,luciferase,0.29 µM
C=C(C)CN1CCN(C)C(=O)c2sc3ccc(OC)cc3c21,-,-,OM-10.1,p24,<0.08 µM
CC(=O)N[C@@H](CCCNC(=O)N(CCCl)N=O)C(=O)NCc1ccccc1,IIIB,-,CEM-IW + CEM,cytopathic effect / XTT,>100 µM
COC(=O)[C@H](C)NP(=O)(OC[C@H]1O[C@@H](n2cc(C)c(=O)[nH]c2=O)C[C@@H]1N=[N+]=[N-])Oc1ccccc1,IIIB,-,CEM + CEM TK-,-,3 µM
COc1ncc(OC)c2c(C(=O)C(=O)N3CCC(=C(c4ccccc4)S(C)(=O)=O)CC3)c[nH]c12,-,-,HeLa,luciferase,1–5 µM
CC[C@@H]1COC[C@H](N(C)C(=O)C(=O)N(C)C)c2nc(C(=O)NCc3ccc(F)cc3)c(O)c(=O)n21,-,G140S/Q148H,HeLa P4-2,single cycle,0.116 µM
CCCC(C(=O)O)c1c(C)nc2ccc(Cl)cc2c1-c1ccc(F)cc1,-,-,C8166,luciferase / reporter gene,<20 µM
COc1cnc(-n2cc(C)nn2)c2[nH]cc(C(=O)C(=O)N3CCC(=C(c4ccccc4)c4nnc(C)o4)CC3)c12,-,-,HeLa,luciferase,<1 µM
CC(C)=CCOc1cc(NC(=S)c2ccoc2C)ccc1Cl,NL4-3 (RT L100I),RT-L100I,CEM + CEM-SS,cytopathic effect / XTT,0.4 µM
CCCN(CCCC[C@H](NC(C)=O)C(=O)NCc1ccccc1)C(=O)N(C)N=O,IIIB,-,CEM-IW + CEM,cytopathic effect / XTT,>100 µM
Cc1occc1C(=S)Nc1ccc(Cl)c(C(=O)OC(C)C)c1,NL4-3,RT-A98G,CEM + CEM-SS,cytopathic effect / XTT,0.03 µM
Cc1cc(CNC(=O)c2nc3n(c(=O)c2O)[C@@H](C)COC[C@@H]3N(C)C(=O)C(=O)N(C)C)ccc1F,-,N155H,HeLa P4-2,single cycle,0.002 µM
Cc1ncc(-c2ccc(OCC3(C)CCC3)nc2)c(N2CCC(C)(C)CC2)c1[C@H](OC(C)(C)C)C(=O)O,NL4-3,-,MT-2,luminescence,0.0059 µM
COc1ccc2sc3c(c2c1)SCCn1ccnc1-3,-,-,OM-10.1,p24,1 µM
CC(C)CN(C[C@@H](O)[C@H](Cc1ccccc1)NC(=O)O[C@H]1CO[C@H]2OCC[C@H]21)S(=O)(=O)c1ccc2c(c1)OCO2,MDR/MM,-,PHA-PBM,p24,0.0038 µM
COc1cnc(-c2cnccn2)c2[nH]cc(C(=O)C(=O)N3CCC(=C(Br)c4ccccc4)CC3)c12,-,-,HeLa,luciferase,<1 µM
COc1cc(F)ccc1OCCN(C)c1ccc(-c2cnc(C)c([C@H](OC(C)(C)C)C(=O)O)c2N2CCC(C)(C)CC2)nc1,NL4-3,-,MT-2,luminescence,0.0016 µM
COC(=O)[C@H]1OC(C)(C)O[C@@H]1C(=O)Nc1cccc2c(C(=O)C(=O)N3CCN(C(=O)c4ccccc4)C[C@H]3C)c[nH]c12,-,-,HeLa,luciferase / reporter gene,<1 µM
Cc1cc(CNC(=O)c2nc3n(c(=O)c2O)CC(C)(C)CC[C@@H]3N(C)C(=O)C(=O)N(C)C)ccc1F,-,Y143R,HeLa P4-2,single cycle,0.001 µM
CCCC(C(=O)O)c1c(C)nc2ccc(Cl)cc2c1-c1ccc(Br)cc1,-,-,C8166,luciferase / reporter gene,<20 µM
Cc1occc1C(=S)Nc1ccc(Cl)c(/C=N/OC(C)(C)C)c1,NL4-3,RT-Y181C,CEM + CEM-SS,cytopathic effect / XTT,0.5 µM
Cc1ncc(-c2cnc(OCC3CCN(C)CC3)c(F)c2)c(N2CCC(C)(C)CC2)c1[C@H](OC(C)(C)C)C(=O)O,NL4-3,-,MT-2,luminescence,0.0116 µM
Cc1cc(-n2c(C)nnc2SCC(=O)Nc2ccccc2Br)c2ccccc2c1C,NL4-3,RT-Y188L,HeLa + HeLa-JC53,luciferase,0.097 µM
COc1ccnc2[nH]cc(C(=O)C(=O)N3CCC(=C(C#N)c4ccccc4)CC3)c12,-,-,HeLa,luciferase,<1 µM
CCCN(CCCC[C@H](NC(C)=O)C(=O)NCc1ccccc1)C(=O)NCCCl,IIIB,-,CEM-IW + CEM,cytopathic effect / XTT,>100 µM
COc1ccc2c(c1)C1=C(CC2)C(=O)NCCN1CCCC(C)C,-,-,OM-10.1,p24,1.4 µM
Clc1cc(CN2CCCNCCNCCCNCC2)cc(Cl)n1,IIIB X4,-,HOS-CD4-CCR5 + HOS,p24,3.2 µM
CC(C)=CCOc1cc(NC(=S)c2ccsc2C)ccc1Cl,4XAZT+Y181C,-,CEM + CEM-SS,cytopathic effect / XTT,0.01 µM
Cc1occc1C(=S)Nc1ccc(Cl)c(C(=O)OCC2CC2)c1,NL4-3,RT-K101E,CEM + CEM-SS,cytopathic effect / XTT,0.9 µM
NS(=O)(=O)c1ccc(NC(=O)CSc2nnc(C(F)(F)F)n2-c2cccc3cccnc23)c(Cl)c1,NL4-3,RT-Y188L,HeLa + HeLa-JC53,luciferase,0.18 µM
Cc1ccc(N(C)C(=O)[C@H](Cc2cc(F)cc(F)c2)NC(=O)NS(=O)(=O)N[C@@H](Cc2cc(F)cc(F)c2)C(=O)N(C)c2ccc(C)nc2)cn1,NL4-3,-,MT-2,luciferase,0.58 µM
CCN(C(=O)C(=O)N(C)C)[C@@H]1CC[C@H](OC)Cn2c1nc(C(=O)NCc1ccc(F)cc1)c(O)c2=O,-,G140S/Q148H,HeLa P4-2,single cycle,0.002 µM
N#CC(=C1CCN(C(=O)C(=O)c2c[nH]c3c(N4C(=O)N[C@@H](CCC(=O)O)C4=O)cccc23)CC1)c1ccccc1,-,-,HeLa,luciferase / reporter gene,<1 µM
C[C@H]1CO[C@@H]2Cn3cc(C(=O)NCc4ccc(F)cc4F)c(=O)c(O)c3C(=O)N12,NL4-3,-,CBMC,RT activity,0.00056 µM
Cc1cc(CNC(=O)c2nc3n(c(=O)c2O)CC(C)(C)CCC3N(C)C(=O)C(=O)N(C)C)ccc1F,-,Y143R,HeLa P4-2,single cycle,0.001 µM
COc1ccc(N(C)C(=O)[C@H](Cc2ccccc2)NC(=O)NS(=O)(=O)N[C@@H](Cc2ccccc2)C(=O)N(C)c2ccc3c(c2)OCO3)cc1,NL4-3,-,MT-2,luciferase,0.08 µM
Cc1ncc(-c2ncc(N)c(NCCOc3ccccc3)n2)c(N2CCC(C)(C)CC2)c1[C@H](OC(C)(C)C)C(=O)O,NL4-3,-,MT-2,luminescence,0.1 µM
CC(=O)N[C@@H](CCCN(Cc1ccccc1)C(=O)N(C)N=O)C(=O)NCc1ccccc1,IIIB,-,CEM-IW + CEM,cytopathic effect / XTT,>100 µM
Cc1ccc(NC(=O)CSc2nnc(C)n2-c2ccc(F)cc2)c(Cl)c1,NL4-3,RT-K103N Y181C,HeLa + HeLa-JC53,luciferase,>10 µM
C=C(Cl)CN1CCNC(=O)c2sc3ccc(OC)cc3c21,-,-,OM-10.1,p24,<0.08 µM
Cc1ncc(-c2ccc(NCCOc3ccc(F)cc3Cl)nc2)c(N2CCC(C)(C)CC2)c1[C@H](OC(C)(C)C)C(=O)O,NL4-3,-,MT-2,luminescence,0.004 µM
CN1c2ccccc2C2C1C=C(C#N)C(=O)N2c1ccc([N+](=O)[O-])cc1,B-HXB2,-,C8166-45,GFP / fluorescence,170 µM
C[C@@H]1CN(C(=O)c2ccccc2)CCN1C(=O)C(=O)c1c[nH]c2c(NC(=O)C(N)C(O)C(=O)O)cccc12,-,-,HeLa,luciferase / reporter gene,<1 µM
CCCC(C(=O)O)c1c(-c2ccc(Cl)cc2)c2cc(Cl)ccc2n(Cc2ccncc2)c1=O,-,-,C8166,luciferase / reporter gene,<20 µM
CCN(C(=O)C(=O)N(C)C)[C@H]1CC[C@H](OC)Cn2c1nc(C(=O)NCc1ccc(F)cc1)c(O)c2=O,-,G140S/Q148H,HeLa P4-2,single cycle,>0.1 µM
COc1ncc(OC)c2c(C(=O)C(=O)N3CCC(=C(C#CC4CC4)c4ccccc4)CC3)c[nH]c12,-,-,HeLa,luciferase,<1 µM
Cc1cc2c(C)ccc(-n3c(C)nnc3SCC(=O)Nc3ccccc3Br)c2cc1C,NL4-3,RT-Y188L,HeLa + HeLa-JC53,luciferase,0.11 µM
CCCC(C(=O)O)c1c(-c2ccc(Cl)cc2)c2cc(Cl)ccc2n(CCOC)c1=O,-,-,C8166,luciferase / reporter gene,<20 µM
Cc1cc(S(N)(=O)=O)ccc1NC(=O)COc1ccc(Cl)cc1C(=O)c1cc(F)cc(C(F)(F)F)c1,IIIB,RT-Y181C,HELA MAGI,luciferase,0.0031 µM
CS(=O)c1ccc(-c2nc(-c3ccc(F)cc3)c(-c3ccncc3)[nH]2)cc1,BaL,-,Mono Mac 6,p24,>1 µM
CCCC(C(=O)O)c1c(C)nc2ccc(Cl)cc2c1-c1ccc2c(ccn2C)c1,-,-,C8166,luciferase / reporter gene,<20 µM
CC[C@H]1COC[C@@H](N(C)C(=O)C(=O)N(C)C)c2nc(C(=O)NCc3ccc(F)cc3)c(O)c(=O)n21,-,E92Q,HeLa P4-2,single cycle,0.002 µM
CC=CCOc1cc(NC(=S)c2ccoc2C)ccc1OC,NL4-3,RT-L74V,CEM + CEM-SS,cytopathic effect / XTT,0.03 µM
COc1cc(-c2ccc(N=Nc3ccc4c(S(=O)(=O)O)cc(S(=O)(=O)O)c(N)c4c3O)c(OC)c2)ccc1N=Nc1ccc2c(S(=O)(=O)O)cc(S(=O)(=O)O)c(N)c2c1O,205,-,CEM + CEM-SS,cytopathic effect / XTT,0.6 µM
Cc1ncc(-c2ccc(N(C)CCOc3ccc(F)cc3Cl)cn2)c(N2CCC(C)(C)CC2)c1[C@H](OC(C)(C)C)C(=O)O,NL4-3,-,MT-2,luminescence,0.0013 µM
C=C(C)CN1CCn2cnnc2-c2sc3ccc([N+](=O)[O-])cc3c21,-,-,OM-10.1,p24,0.4 µM
C=CCN(C(=O)[C@H](Cc1cc(F)cc(F)c1)NC(=O)NS(=O)(=O)N[C@@H](Cc1cc(F)cc(F)c1)C(=O)N(CC=C)c1ccc(OC)cc1)c1ccc(OC)cc1,NL4-3,-,MT-2,luciferase,0.26 µM
O=C1Nc2ccc(Cl)cc2[C@@](C#CC2CC2)(C(F)(F)F)O1,94ug114.1.6,-,HEK293T,luciferase,5.73 nM
C[C@@H]1CN(C(=O)c2ccccc2)CCN1C(=O)C(=O)c1c[nH]c2c(N3CCN(CCN(C)C)C3=O)cccc12,-,-,HeLa,luciferase / reporter gene,<1 µM
Cc1nc2ccc(Cl)cc2c(-c2cccc(O)c2)c1C(OC(C)C)C(=O)O,-,-,C8166,luciferase / reporter gene,<20 µM
C[C@@H]1CN(C(=O)c2ccccc2)CCN1C(=O)C(=O)c1c[nH]c2c(NC(=O)NCCOCCOCCN)cccc12,-,-,HeLa,luciferase / reporter gene,<1 µM
C=CCNC(=O)NCCC[C@H](NC(C)=O)C(=O)NCc1ccccc1,IIIB,-,CEM-IW + CEM,cytopathic effect / XTT,>100 µM
CC1CC(C)CN(S(=O)(=O)c2ccccc2[N+](=O)[O-])C1,C-98IN022,-,HeLa,GFP / fluorescence,2.65 µM
CNC(C(=O)O)C(O)C(=O)Nc1cccc2c(C(=O)C(=O)N3CCN(C(=O)c4ccccc4)C[C@H]3C)c[nH]c12,-,-,HeLa,luciferase / reporter gene,<1 µM

For reference, 8 entries again:

structure	strain or isolate	changes	cell line	read by	value
COc1cc(F)ccc1OCCN(C)c1ccc(-c2cnc(C)c([C@H](OC(C)(C)C)C(=O)O)c2N2CCC(C)(C)CC2)nc1	NL4-3	-	MT-2	luminescence	0.0016 µM
C=CCNC(=O)NCCC[C@H](NC(C)=O)C(=O)NCc1ccccc1	IIIB	-	CEM-IW + CEM	cytopathic effect / XTT	>100 µM
C=CCO/N=C/c1cc(NC(=S)c2ccoc2C)ccc1Cl	NL4-3	RT-L100I	CEM + CEM-SS	cytopathic effect / XTT	1.3 µM
C=C(C)CN1CCN(C)C(=O)c2sc3ccc(OC)cc3c21	-	-	OM-10.1	p24	<0.08 µM
COc1ccnc2[nH]cc(C(=O)C(=O)N3CCC(=C(C#N)c4ccccc4)CC3)c12	-	-	HeLa	luciferase	<1 µM
C=CCN(C(=O)[C@H](Cc1cc(F)cc(F)c1)NC(=O)NS(=O)(=O)N[C@@H](Cc1cc(F)cc(F)c1)C(=O)N(CC=C)c1ccc(OC)cc1)c1ccc(OC)cc1	NL4-3	-	MT-2	luciferase	0.26 µM
CCCN(CCCC[C@H](NC(C)=O)C(=O)NCc1ccccc1)C(=O)NCCCl	IIIB	-	CEM-IW + CEM	cytopathic effect / XTT	>100 µM
COc1ccc(N(C)C(=O)[C@H](Cc2ccccc2)NC(=O)NS(=O)(=O)N[C@@H](Cc2ccccc2)C(=O)N(C)c2ccc3c(c2)OCO3)cc1	NL4-3	-	MT-2	luciferase	0.08 µM